PubChem BioAssay AID1259414, Drosophila RNAi Screening Center | 2018

Aim: 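Genome-wide screen for host control of endosymbiont load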 (primary screen)
System: Drosophila JW18 cells infected with Wolbachia
Knock-down reagent: long dsRNA against Drosophila genes, 0.25 µg dsRNA per well of a 384-well plate
Timing: 5 days
Treatment: cells persistently infected with Wolbachia before knock-down; no added drug
Detection: 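Imaged fluorescence in situ signal for Wolbachia 23S rRNA per DAPI-counted host cell, given as a robust z-score within each plate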
Direction: Wolbachia per cell robust z: higher = more Wolbachia per host cell than the plate typical
Hit rule: 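Hit when robust z is 1.5 or more, or -1.5 or less, in at least two of three replicates; excludes dsRNAs with several or no targets, genes not expressed in JW18 and well A1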
The deposit covers about 24,000 reagents; this is an unselected part of those with a known target gene and a result. Over the whole deposit, about 1,210 (5%) got an active call. 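Inactive calls also include excluded dsRNAs with several or no targets, genes unexpressed in JW18, and well A1, regardless of score.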

Wolbachia per cell robust z, rep 1	Wolbachia per cell robust z, rep 2	Wolbachia per cell robust z, rep 3	activity call	predicted target	amplicon
-3.16	-1.21	0.126	inactive	CG14247	DRSC14742
-0.555	-0.105	0.805	inactive	CG14247	DRSC24048
-0.569	-0.224	-1.42	inactive	CG1304	DRSC20494
-3.64	0.446	1.58	inactive	CG1304	DRSC25704
-0.213	0.253	-3.19	inactive	cid	DRSC05429
-3.53	0.32	-1.3	inactive	cid	DRSC07592
-1.93	0.806	-1.1	inactive	CG13127	DRSC02223
0.92	0.906	-5.48	inactive	CG13127	DRSC29726
0.0634	-0.751	-2.28	inactive	CG34444	DRSC06435
1.07	0.00349	-0.771	inactive	CG34444	DRSC41475
-0.743	0.737	0.136	inactive	asRNA:CR43637	DRSC40538
-0.0973	0.352	-0.0132	inactive	hfp	DRSC08731
-0.842	-0.302	0.467	inactive	hfp	DRSC08732
0.386	0.871	-0.0452	inactive	hfp	DRSC22408
1.33	0.853	1.5	inactive	hfp	DRSC25143
-0.36	-0.825	-4.64	inactive	pon	DRSC18823
0.148	0.572	0.174	inactive	Crag	DRSC18454
-0.185	-0.42	-0.159	inactive	CG6654	DRSC16084
-1.04	-0.123	-0.689	inactive	CG32987	DRSC22373
-2.99	-1.03	0.547	inactive	CG32987	DRSC28687
-0.124	-1.8	0.145	inactive	CG10321	DRSC04061
-0.587	0.124	-0.137	inactive	CG10321	DRSC28284
-3.01	-0.747	-0.214	inactive	CG13671	DRSC10030

Quoted from above for reference:
Wolbachia per cell robust z, rep 1	Wolbachia per cell robust z, rep 2	Wolbachia per cell robust z, rep 3	activity call	predicted target	amplicon
-1.04	-0.123	-0.689	inactive	CG32987	DRSC22373
-2.99	-1.03	0.547	inactive	CG32987	DRSC28687
-0.124	-1.8	0.145	inactive	CG10321	DRSC04061
-0.587	0.124	-0.137	inactive	CG10321	DRSC28284
-3.01	-0.747	-0.214	inactive	CG13671	DRSC10030

Continued:
Wolbachia per cell robust z, rep 1	Wolbachia per cell robust z, rep 2	Wolbachia per cell robust z, rep 3	activity call	predicted target	amplicon
0.704	-1.09	-1.27	inactive	sncRNA:158	DRSC37905
-0.205	-1.39	-3.98	inactive	CG4630	DRSC06874
0.325	0.374	-0.587	inactive	CG4630	DRSC26971
0.718	-0.179	0.245	inactive	CG13587	DRSC04223
-0.483	0.417	0.207	inactive	CG13587	DRSC29632
2.65	1.12	1.93	active	UbcE2M	DRSC10828
0.498	-0.0613	1.56	inactive	CG31538	DRSC12059
-0.526	-0.975	0.623	inactive	Hasp	DRSC02022
0.763	0.753	0.913	inactive	hiw	DRSC20338
-4.64	0.0884	0.525	inactive	hiw	DRSC20339
0.52	-0.124	0.41	inactive	hiw	DRSC23634
1.1	1.07	-1.46	inactive	CG14062	DRSC14725
0.302	0.406	1.13	inactive	CG14062	DRSC27180
0.625	0.308	0.262	inactive	MTPAP	DRSC18585
0.208	-0.12	0.735	inactive	MTPAP	DRSC30055
0.807	1.22	0.482	inactive	Dscam3	DRSC14525
-0.801	1.08	0.662	inactive	Dscam3	DRSC16376
-1.91	-3.27	1.16	inactive	Mp	DRSC10193
-0.206	-3.15	-3.98	inactive	Mp	DRSC11029
-4.83	-0.432	1.02	inactive	Mp	DRSC11030
0.63	0.678	-0.638	inactive	CG13069	DRSC09952
-3.08	-0.278	-2.08	inactive	lectin-28C	DRSC03010
-1.09	-1.12	1.09	inactive	lectin-28C	DRSC26982
